From paper PMC7331731, “Activity of vitamin D receptor agonists against dengue virus” (Scientific Reports, 2020)

test system: DENV 2; test: DENV 2 virus titer in supernatant by standard plaque assay (infected HEK293T/17 cells); format: cell-based, dengue virus; details: CC50/EC50, HEK293T/17 cells
Description: Human embryonic kidney HEK293T/17 (ATCC No. CRL-11268) and human hepatocellular HepG2 (ATCC No. HB-8065) cells were cultured in complete medium, composed of Dulbecco’s modified Eagle medium (DMEM; Gibco BRL) supplemented with 10% heat-inactivated fetal bovine serum (FBS) at 37 °C with 5% CO2. Dengue virus serotype 2 (DENV 2) strain 16681, DENV 1 (strain 16007), DENV 3 (strain 16562), DENV 4 (strain 1036), ZIKV (strain SV0010/15) and JEV (strain BJ1) were all propagated in the Aedes albopictus cell line C6/36 (ATCC No. CRL-1660). Viral progenies in the supernatant were collected and centrifuged at 1,000g to remove cell debris. The virus stocks were kept at − 80 °C until used. Virus titers were determined by standard plaque assay on LLC-MK2 cells (ATCC No. CCL-7).
HEK293T/17 cells were cultured on 6-well plates until 70% confluence was reached under standard conditions. The cells were mock-infected or infected with DENV 2 at a multiplicity (MOI) of 5 for 2 h. After infection, the medium was removed and the infected cells were incubated with appropriate concentrations of the VDR agonists until 24 h.p.i., in parallel with DMSO treated control cells. Experiments were performed independently triplicate.
For time course experiments, under conditions of pre-infection treatment, HEK293T/17 cells were pre-treated with an appropriate concentration of VDR agonists for 1, 3 or 6 h before infection, followed by incubation in complete medium. For treatment post-infection, infected cells were treated with VDR agonists at 0, 1, 3, 6 and 12 h.p.i. The infected cells and supernatant for both pre- and post-treated samples were collected at 24 h.p.i. Experiments were performed independently triplicate.

SMILES	Selective index (SI)
CSCCC(NC(=O)OC(C)(C)C)C(=O)Nc1ccc(C2N(c3ccc([N+](=O)[O-])cc3)C(=O)C3CCCN32)cc1 (stereo not shown) [ZD-4]	15.53
CSCCC(N)C(=O)Oc1ccc(C2N(c3ccc([N+](=O)[O-])cc3)C(=O)C3CCCN32)cc1.Cl (stereo not shown) [ZD-3]	52.75
O=C1C2CCCN2C(c2ccc(O)cc2)N1c1ccc([N+](=O)[O-])cc1 (stereo not shown) [ZD-6]	24.46
COc1ccc(CC2N(c3ccc([N+](=O)[O-])cc3)C(=O)C3CCCN32)cc1OC (stereo not shown) [ZD-5]	51.84
CSCCC(NC(=O)OC(C)(C)C)C(=O)Oc1ccc(C2N(c3ccc([N+](=O)[O-])cc3)C(=O)C3CCCN32)cc1 (stereo not shown) [ZD-20]	5.98
COc1cc(C2N(c3ccc([N+](=O)[O-])cc3)C(=O)C3CCCN32)ccc1O (stereo not shown) [ZD-2]	26.65
O=C1C2CCCN2C(c2ccco2)N1c1ccc([N+](=O)[O-])cc1 (stereo not shown) [ZD-1]	29.71
